Holding throughout (assay type): cell-based
Settings in all cases: ratio CC50 / IC50

Data set [1] relates to SARS-CoV-2 Wuhan lineage B, hCoV-19/Australia/VIC01/2020 (EPI_ISL_406844).
The subject of data set [2] is SARS-CoV-2 Delta lineage B.1.617.2, hCoV-19/Russia/PSK-2804/2021.
Data set [3] has as its system SARS-CoV-2 Omicron lineage B.1.1.529, hCoV-19/Russia/Moscow171619-031221/2021.

In paper PMC9611092 (Viruses, 2022) one finds SI data, which are given here for nine compounds.

Each structure is given as a SMILES string.

With `CC(=O)C1=C(O)C=C2Oc3c(C(=O)CSC(C)C(=O)O)c(O)c(C)c(O)c3[C@@]2(C)C1=O` (mixture of isomers) [Compound 5b, (2S)-2-({2-[(1R)-12-acetyl-3,5,11-trihydroxy-1,4-dimethyl-13-oxo-8-oxatricyclo[7.4.0.0^2,7]trideca-2(7),3,5,9,11-pentaen-6-yl]-2-oxoethyl}sulfanyl)propanoic acid and (2R)-2-({2-[(1R)-12-acetyl-3,5,11-trihydroxy-1,4-dimethyl-13-oxo-8-oxatricyclo [7.4.0.0^2,7]trideca-2(7),3,5,9,11-pentaen-6-yl]-2-oxoethyl}sulfanyl)propanoic acid (1:1)], the SI in data set [1] was determined as 2.

For `CC(=O)C1=C(O)C=C2Oc3c(C(C)=O)c(O)c(C)c(O)c3[C@@]2(C)C1=O` [Compound 1, (R)-(+)-Usnic acid], the SI is recorded as 7 in data set [2], 13 in data set [1] and 39 in data set [3].

Turning to `CC(=O)c1c(O)c(C)c(O)c2c1OC1=CC(=O)c3c(C)noc3[C@@]12C` [Compound 3], the SI is 1.7 in data set [2], 1.6 in data set [1] and 4.5 in data set [3].

Take `CC(=O)C1=C(O)C=C2Oc3c4c(c(C)c(O)c3[C@@]2(C)C1=O)OCC4=O` [Compound 8]: the SI amounted to 2 in data set [2], 4 in data set [1] and 4 in data set [3].

Consider `CC(=O)C1=C(O)C=C2Oc3c(C(=O)CO)c(O)c(C)c(O)c3[C@@]2(C)C1=O` [Compound 10, (2R)-4-acetyl-5,11,13-trihydroxy-10-(2-hydroxyacetyl)-2,12-dimethyl-8-oxatricyclo[7.4.0.0^2,7]trideca-1(9),4,6,10,12-pentaen-3-one], for which the SI amounted to 31 in data set [2], 12 in data set [1] and 17 in data set [3].

For the compound `CC(=O)C1=C(O)C[C@H]2Oc3c(C(C)=O)c(O)c(C)c(O)c3[C@@]2(C)C1=O` [Compound 11, (2R,7R)-4,10-diacetyl-5,11,13-trihydroxy-2,12-dimethyl-8-oxatricyclo [7.4.0.0^2,7]trideca-1(9),4,10,12-tetraen-3-one], the SI in data set [1] came out at 4.

Regarding `CCC1=C(O)C[C@H]2Oc3c(C(C)=O)c(O)c(C)c(O)c3[C@@]2(C)C1=O` [Compound 12, (2R,7R)-10-acetyl-4-ethyl-5,11,13-trihydroxy-2,12-dimethyl-8-oxatricyclo[7.4.0.0^2,7]trideca-1(13),4,9,11-tetraen-3-one], the SI is reported as 3 in data set [2], 3 in data set [1] and 4 in data set [3].

`CC(=O)c1c(O)c(C)c(O)c2c1O[C@@H]1CC/C(=C(/C)O)C(=O)[C@]21C` [Compound 13, (2R,4E,7R)-10-acetyl-11,13-dihydroxy-4-(1-hydroxyethylidene)-2,12-dimethyl-8-oxatricyclo [7.4.0.0^2,7] trideca-1(13),9,11-trien-3-one]: the SI in data set [2] is recorded as 5; in data set [1], 10; in data set [3], 10.

For `CCC(CC)COC(=O)[C@H](C)N[P@](=O)(OC[C@H]1O[C@@](C#N)(c2ccc3c(N)ncnn23)[C@H](O)[C@@H]1O)Oc1ccccc1` [Remdesivir, reference compound], the values for the SI in data set [2], in data set [1] and in data set [3] were 338, 186 and 356, respectively.
